Assay results taken from patent EP0893123A1, “AGENT FOR USE IN THE PREVENTION AND TREATMENT OF DISORDERS ASSOCIATED WITH VARIOUS TYPES OF AGEING” (Peganov, Eduard Maximovich, priority 1995, dated 1997).

Tested on: pneumococcus
Experiment: Bacterial shock model (intraperitoneal pneumococcus culture, minimal lethal dose)
Settings: with additional treatment during shock to maintain blood circulation, fig. 6

deuterium oxide [heavy water]
animals that overcame the shock and survived: half of them could overcome the shock and survived
